A mixed list of measured activities; the numbers were collected in NIAID ChemDB.

Shared fields: whole-cell or culture tests; species: Aspergillus niger

An empty or dashed field is not shown.

SMILES	strain	conditions	read by	read-out	value
COc1ccccc1OC/C(=N/O)c1ccccc1	ATCC 16404	72 h	broth dilution	MIC	>125 µg/mL
Nc1ccccc1Cc1nc(CN2CCc3sccc3C2)n[nH]1	NCIM 1196	-	agar	MIC	150 µg/mL
C/C(=N\NC(=S)Nc1cccc([N+](=O)[O-])c1)c1c(O)ccc2c(C)cc(=O)oc12	-	-	-	MIC	10 µg/mL
CCC(=O)O/N=C/c1ccc(OP2(Oc3ccc(/C=N/OC(=O)CC)cc3OC)=NP(Oc3ccc(/C=N/OC(=O)CC)cc3OC)(Oc3ccc(/C=N/OC(=O)CC)cc3OC)=NP(Oc3ccc(/C=N/OC(=O)CC)cc3OC)(Oc3ccc(/C=N/OC(=O)CC)cc3OC)=N2)c(OC)c1	-	-	agar diffusion / agar	MIC	>100 µg/mL
COc1ccc(C2CC(c3nc4ccccc4[nH]3)=NN2C(=O)COc2ccc(NC(C)=O)cc2)cc1	MTCC 282	-	-	MIC100	250 µg/mL
O=C1CSC(c2ccccn2)N1c1ccc(Cl)cn1	NCIM 742	-	agar	MIC	68 µg/mL
COc1cc(OCC(=O)c2ccccc2)cc(OC)c1OC	ATCC 16404	48 h	broth dilution	MIC	>125 µg/mL
O=C(Nc1nc2ccccc2s1)c1cn[nH]c1C(=O)c1ccc(Cl)cc1	-	-	broth dilution	MIC	1.25 µg/mL
O=C(CSc1nnc(-c2ccc3ncccc3c2)o1)Nc1nc2ccc(I)cc2s1	-	-	agar	MIC	100 µg/mL
CCn1cc(C(=O)O)c(=O)c2cc(F)c(N3CCN(CN4C(=O)C(=Nc5ccc(S(=O)(=O)Nc6ncccn6)cc5)c5cc(Br)ccc54)CC3)cc21	-	-	-	MIC	78.12 µg/mL
O/N=C(/COc1ccc(F)cc1)c1ccccc1	ATCC 16404	48 h	broth dilution	MIC	>125 µg/mL
CCCOC(=O)CC(c1nccn1C)c1nccn1C	ATCC 16404	24 h	broth dilution	MIC	>512 µg/mL
CC(=O)CC(C)n1c2c(=O)c3ccccc3c(=O)c=2oc2ccc(Cl)cc21	VKM F-1119	-	-	MIC	31.2 µg/mL
Cc1ccc(NC(=O)CSc2nnc(-c3ccc4ncccc4c3)o2)cc1	-	-	agar	MIC	100 µg/mL
CC(=O)Nc1ccc(OCC(=O)N2N=C(c3nc4ccccc4[nH]3)CC2c2cccc(Br)c2)cc1	MTCC 282	-	-	MIC100	250 µg/mL
O/N=C(\COc1ccccc1)c1ccccc1	ATCC 16404	48 h	broth dilution	MIC	>125 µg/mL
COc1cc(/C=N/O)ccc1OP1(Oc2ccc(/C=N/OC(=O)c3ccccc3)cc2OC)=NP(Oc2ccc(/C=N/OC(=O)c3ccccc3)cc2OC)(Oc2ccc(/C=N/OC(=O)c3ccccc3)cc2OC)=NP(Oc2ccc(/C=N/OC(=O)c3ccccc3)cc2OC)(Oc2ccc(/C=N/OC(=O)c3ccccc3)cc2OC)=N1	-	-	agar diffusion / agar	MIC	75 µg/mL
CCn1cc(C(=O)O)c(=O)c2cc(F)c(N3CCN(CN4C(=O)/C(=N\c5ncc(Cc6cc(OC)c(OC)c(OC)c6)c(N)n5)c5ccccc54)CC3)cc21	-	-	-	MIC	78.12 µg/mL
CCOC(=O)/C=C(/C)n1c2c(=O)c3ccccc3c(=O)c=2oc2ccc(C)cc21	VKM F-1119	-	-	MIC	500 µg/mL
COc1cc(/C=N/O)ccc1OP1(Oc2ccc(/C=N/OC(=O)c3ccccc3Cl)cc2OC)=NP(Oc2ccc(/C=N/O)cc2OC)(Oc2ccc(/C=N/OC(=O)c3ccccc3Cl)cc2OC)=NP(Oc2ccc(/C=N/OC(=O)c3ccccc3Cl)cc2OC)(Oc2ccc(/C=N/OC(=O)c3ccccc3Cl)cc2OC)=N1	-	-	agar diffusion / agar	MIC	>100 µg/mL
CN1CCC(n2cc(CN3CCc4sccc4C3)nn2)CC1	NCIM 1196	-	agar	MIC	>200 µg/mL
C[C@@H]1C/C=C/C=C/C=C/C=C/[C@H](OC2O[C@H](C)[C@@H](O)[C@H](N)[C@@H]2O)CC2O[C@](O)(C[C@@H](O)C[C@H]3O[C@@H]3/C=C/C(=O)O1)C[C@H](O)[C@H]2C(=O)O	Species complex	-	-	MIC90	8 µg/mL
CCn1cc(C(=O)O)c(=O)c2cc(F)c(N3CCN(CN4C(=O)C(=Nc5ccc(S(=O)(=O)Nc6ncnc(OC)c6OC)cc5)c5ccccc54)CC3)cc21	-	-	-	MIC	9.76 µg/mL
COc1cccc(OC)c1C1SCC(=O)N1c1ncccc1C	NCIM 742	-	agar	MIC	20 µg/mL
O=c1cc(Cc2c3ccccc3nc3ccccc23)c2cc(Cl)ccc2o1	-	-	agar diffusion / agar	MIC	100 µg/mL
N#Cc1ccc2nc(NC(=O)CSc3nnc(-c4ccc5ncccc5c4)o3)sc2c1	-	-	agar	MIC	50 µg/mL
CCn1cc(C(=O)O)c(=O)c2cc(F)c(N3CCN(CN4C(=O)/C(=N\c5ncc(Cc6cc(OC)c(OC)c(OC)c6)c(N)n5)c5cc(Br)ccc54)CC3)cc21	-	-	-	MIC	19.53 µg/mL
O=C(CSc1nnc(-c2ccc3ncccc3c2)o1)Nc1ccc([N+](=O)[O-])cc1	-	-	agar	MIC	50 µg/mL
CC(=O)CC(C)n1c2c(=O)c3ccccc3c(=O)c=2oc2ccc(C)cc21	VKM F-1119	-	-	MIC	31.2 µg/mL
CC(=O)Nc1ccc(OCC(=O)N2N=C(c3nc4ccccc4[nH]3)CC2c2cccc(F)c2)cc1	MTCC 282	-	-	MIC100	100 µg/mL
Cc1cccc(N2C(=O)CSC2c2ccccn2)n1	NCIM 742	-	agar	MIC	75 µg/mL
O=C(COc1ccccc1)c1ccccc1	ATCC 16404	72 h	broth dilution	MIC	>125 µg/mL
Cc1cc(=O)oc2c(C=NCCN=Cc3c(O)ccc4c(C)cc(=O)oc34)c(O)ccc12	-	-	-	MIC	10 µg/mL
Cn1ccnc1Cc1nccn1C	ATCC 16404	48 h	broth dilution	MIC	>512 µg/mL
CCC(=O)N1CCC(n2cc(CN3CCc4sccc4C3)nn2)CC1	NCIM 1196	-	agar	MIC	>200 µg/mL
COc1ccc(C(=O)O/N=C/c2ccc(OP3(Oc4ccc(/C=N/OC(=O)c5ccc(OC)cc5)cc4OC)=NP(Oc4ccc(/C=N/OC(=O)c5ccc(OC)cc5)cc4OC)(Oc4ccc(/C=N/OC(=O)c5ccc(OC)cc5)cc4OC)=NP(Oc4ccc(/C=N/OC(=O)c5ccc(OC)cc5)cc4OC)(Oc4ccc(/C=N/OC(=O)c5ccc(OC)cc5)cc4OC)=N3)c(OC)c2)cc1	-	-	agar diffusion / agar	MIC	>100 µg/mL
COc1ccc(Cc2nc(CN3CCc4sccc4C3)n[nH]2)cc1	NCIM 1196	-	agar	MIC	15 µg/mL
COc1ccccc1/C=C1/S/C(=N/NC(=O)c2sc(NC(=O)c3ccc(F)cc3)nc2C)N(c2ccccc2)C1=O	MTCC 282	-	-	MIC50	50 µg/mL
Cc1cc(=O)oc2c(C=Nc3ccccc3N=Cc3c(O)ccc4c(C)cc(=O)oc34)c(O)ccc12	-	-	-	MIC	10 µg/mL
C[C@H]1[C@H](O)[C@@H](C)/C=C/C=C/C=C/C=C/C=C/C=C/C=C/[C@H](O[C@@H]2O[C@H](C)[C@@H](O)[C@H](N)[C@@H]2O)C[C@@H]2O[C@](O)(C[C@@H](O)C[C@@H](O)CC[C@H](O)[C@@H](O)C[C@@H](O)CC(=O)O[C@H]1C)C[C@H](O)[C@H]2C(=O)O	64028	-	broth dilution	MIC	0.015 µg/mL
CCn1cc(C(=O)O)c(=O)c2cc(F)c(N3CCN(CN4C(=O)C(=Nc5ccc(S(=O)(=O)Nc6ncccn6)cc5)c5ccccc54)CC3)cc21	-	-	-	MIC	156 µg/mL
COc1cc(OC/C(=N/O)c2ccccc2)cc(OC)c1OC	ATCC 16404	72 h	broth dilution	MIC	>125 µg/mL
Clc1ccccc1-c1n[nH]c(CN2CCc3sccc3C2)n1	NCIM 1196	-	agar	MIC	150 µg/mL
O=C1CSC(c2c(Cl)cccc2Cl)N1CCc1ccccc1	NCIM 742	-	agar	MIC	35 µg/mL
Cc1cccc(/C=C2/S/C(=N/NC(=O)c3sc(NC(=O)c4ccc(F)cc4)nc3C)N(c3ccccc3)C2=O)c1	MTCC 282	-	-	MIC50	100 µg/mL
O=C(CSc1nnc(-c2ccc3ncccc3c2)o1)Nc1ccc(F)cc1	-	-	agar	MIC	25 µg/mL
NS(=O)(=O)c1ccc(N2C(=O)CSC2c2ccccc2Cl)cc1	NCIM 742	-	agar	MIC	17 µg/mL
COc1c(CN(C)C)cccc1C1OC(c2ccncc2)=NN1C(C)=Nc1ccccc1	MTCC 8189	-	-	MIC	25 µg/mL
Cc1ccccc1/C=C1/S/C(=N/NC(=O)c2sc(NC(=O)c3ccc(F)cc3)nc2C)N(c2ccccc2)C1=O	MTCC 282	-	-	MIC50	25 µg/mL
COc1ccc2nc(NC(=O)CSc3nnc(-c4ccc5ncccc5c4)o3)sc2c1	-	-	agar	MIC	50 µg/mL
Cc1nc(NC(=O)c2ccc(F)cc2)sc1C(=O)N/N=C1/S/C(=C/c2ccccc2[N+](=O)[O-])C(=O)N1c1ccccc1	MTCC 282	-	-	MIC50	1000 µg/mL
Cn1cnc(-c2ccccc2)c1	ATCC 16404	24 h	broth dilution	MIC	>512 µg/mL
CC(=O)Nc1ccc(OCC(=O)N2N=C(c3nc4ccccc4[nH]3)CC2c2ccccc2Cl)cc1	MTCC 282	-	-	MIC100	50 µg/mL
Cc1nc(NC(=O)c2ccc(F)cc2)sc1C(=O)N/N=C1/S/C(=C/c2ccc(Cl)cc2)C(=O)N1c1ccccc1	MTCC 282	-	-	MIC50	1000 µg/mL
CC(=O)Nc1ccc(OCC(=O)N2N=C(c3nc4ccccc4[nH]3)CC2c2ccc([N+](=O)[O-])cc2)cc1	MTCC 282	-	-	MIC100	25 µg/mL
COc1cccc(/C=C2/S/C(=N/NC(=O)c3sc(NC(=O)c4ccc(F)cc4)nc3C)N(c3ccccc3)C2=O)c1	MTCC 282	-	-	MIC50	250 µg/mL

4 of the rows above, restated:

COc1cc(/C=N/O)ccc1OP1(Oc2ccc(/C=N/OC(=O)c3ccccc3)cc2OC)=NP(Oc2ccc(/C=N/OC(=O)c3ccccc3)cc2OC)(Oc2ccc(/C=N/OC(=O)c3ccccc3)cc2OC)=NP(Oc2ccc(/C=N/OC(=O)c3ccccc3)cc2OC)(Oc2ccc(/C=N/OC(=O)c3ccccc3)cc2OC)=N1 ; read by: agar diffusion / agar ; read-out: MIC ; value: 75 µg/mL
CCn1cc(C(=O)O)c(=O)c2cc(F)c(N3CCN(CN4C(=O)/C(=N\c5ncc(Cc6cc(OC)c(OC)c(OC)c6)c(N)n5)c5ccccc54)CC3)cc21 ; read-out: MIC ; value: 78.12 µg/mL
Cc1nc(NC(=O)c2ccc(F)cc2)sc1C(=O)N/N=C1/S/C(=C/c2ccccc2[N+](=O)[O-])C(=O)N1c1ccccc1 ; strain: MTCC 282 ; read-out: MIC50 ; value: 1000 µg/mL
CC(=O)Nc1ccc(OCC(=O)N2N=C(c3nc4ccccc4[nH]3)CC2c2cccc(F)c2)cc1 ; strain: MTCC 282 ; read-out: MIC100 ; value: 100 µg/mL

A number after MIC or MFC names an inhibition level or a share of isolates. Conditions beyond the fields shown may differ between rows.